Results: US9956260

Biological target: HIV-1 gp41 of GIA-SKY (T20-dependent virus) (HIV-1 (NL4-3 mutant))
Assay: cell-based or functional assay

Substance: enfuvirtide (T20) (peptide)
- indirect CD4 T-cell killing (viable CFSE-positive CD4 T-cells): 1 µg/mL
- viral replication in HLACs (p24gag FLAQ assay): 1 µg/mL
